Data source: PubChem BioAssay AID504761 (Drosophila RNAi Screening Center, 2011)
In all, the deposit lists about 22,000 reagents; below is an unselected part of those that have a named target and a result. In the full data, 116 (0.52%) are marked active. 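Calls depend on retest data that are not deposited; infection was ranked per plate without normalising between plates; the unit of the infection score is not given.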 Raw values are not corrected between plates. Entries without a mark were called inactive. The numbers tell different reagents against one gene apart. A plus sign joins genes that one reagent is predicted to hit. The record does not give: the amount of reagent, the time to read-out.

- Screen: 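Genome-wide fly cell screen for genes dengue virus requires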 (primary screen)
- Cell system: D.Mel-2 cells from Drosophila
- Knock-down reagent: long dsRNA against Drosophila genes
- Treatment: infection with dengue virus type 2; dose and infection time not stated
- Detection: 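Per well on two replicate plates, imaging gave the percent of cells positive for viral envelope protein, ranked by infection, and a nuclear count of cells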
- Scale: infection score: higher = more virus-infected cells; cell count: higher = more cells in the well
- Hit rule: 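Very low infection ranking in both replicate wells (chance probability at most 0.065), then a retest showing infection dropped 1.5-fold or more at p below 0.05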
- Calls: active = confirmed: knock-down lowers infection; inactive = not picked or not confirmed

gene	dsRNA no.	infection score, replicate 1	infection score, replicate 2	cell count, replicate 1	cell count, replicate 2
CG5846	1	4.99	3.23	6212	6368
Ldh	1	0.55	3.3	5992	5938
Prx6c	1	15.9	5.47	4036	6688
Prx6c	2	32	10.9	5242	5053
dgt6	1	5.63	4.96	5777	6507
CG33098	1	3.44	18.2	6334	3794
mi	1	2	13.7	6450	4397
mi	2	9.61	11.6	4597	1856
Apoltp	1	10	6.02	6170	6009
CG13071	1	2.38	0.35	5972	6218
Ced-12	1	5.1	4.28	6607	6863
Ced-12	2	2.02	2.21	7423	7359
Nubp2	1	4.31	1.06	6380	6480
mTerf3	1	11.7	9.94	6249	6196
Obp57c + Obp57b	1	15.1	11	5701	6058
Obp57c + Obp57b	2	1.17	2.88	6129	6274
CG9692	1	2.56	3.09	6183	6510
GstT2	1	1.87	7.37	6990	6558
RpS17	1	12.1	8.66	4730	5092
RpS17	2	10	6.65	2191	1955
ttv	1	18.5	9.7	5986	6393
ttv	2	5.1	0.77	4961	6508
CG11262	1	0.4	2.83	6006	6532
daw	1	5.04	1.24	6009	6379
daw	2	2.26	12.1	6472	6074
CG7049	1	12.8	31.7	5860	3751
CG7049	2	8.66	2.55	5533	6522
Or85c	1	6.46	8.03	6838	6262
CG31041	1	0.14	0.03	6526	6686

7 entries from above in another layout.
gene | dsRNA no. | infection score, replicate 1 | infection score, replicate 2 | cell count, replicate 1 | cell count, replicate 2
RpS17 | 1 | 12.1 | 8.66 | 4730 | 5092
RpS17 | 2 | 10 | 6.65 | 2191 | 1955
ttv | 1 | 18.5 | 9.7 | 5986 | 6393
ttv | 2 | 5.1 | 0.77 | 4961 | 6508
CG11262 | 1 | 0.4 | 2.83 | 6006 | 6532
daw | 1 | 5.04 | 1.24 | 6009 | 6379
daw | 2 | 2.26 | 12.1 | 6472 | 6074

More records follow:
gene	dsRNA no.	infection score, replicate 1	infection score, replicate 2	cell count, replicate 1	cell count, replicate 2
CG10428	1	10	6.64	6632	6118
CG15631	1	3.2	2.66	6132	6686
COX4	1	19.4	12.4	5158	5307
COX4	2	10.6	17.1	4853	5047
CG13747	1	16.3	9.78	5730	5982
Pym	1	2.12	6.01	5945	6761
CG14309	1	6.88	18.9	6704	6020
CG13654	1	5.5	2.25	6595	6663
CG5504	1	3.82	13.9	6579	5641
PIG-G	1	25.1	31.8	6464	5568
CG8419	1	4.83	6.57	6254	2513
PH4alphaNE2	1	18.6		3857	357
PH4alphaNE2	2	3.1	1.62	6391	6116
Mst57Da	1	1.74	9.21	1262	6734
CG7675	1	10.5	4.2	5950	6718
CG7675	2	5.52	14.1	6391	6934
Jhbp2	1	0.98	2.98	6922	6903
CG43658	1	1.54	4.52	6799	6901
CG43658	2	25.4	3.9	6088	6256
Fer3HCH	1	4.87	3.31	6298	6459
Fer3HCH	2	9.11	20.7	6846	6680
Ndc1	1	12.6	10.6	4667	5012
CG33483	1	6.58	4.74	6273	6420
Dronc	1	11.1	10.3	7039	7241
fzo	1	2.84	13	6582	6147
Lgr4	1	2.04	2.31	6084	6677
Lgr4	2	9.16	10.1	3822	6389
Lgr4	3	10.9	5.06	6790	6358
CG11474	1	25.6	24.1	5876	5642
sif	1	0.84	1.36	5596	4191
sif	2	0.3	2.15	6261	5678
sif	3	7.53	11.1	6344	6022
sif	4	0.32	2.64	6796	6700
sif	5	14.4	10.6	6444	6635
amx	1	2.12	2.69	6329	6513
rdgA	1	2.8	3.62	6110	6468
rdgA	2	10.4	8.15	6431	6687
rdgA	3	3.87	3.93	6462	6965
rdgA	4	3.27	9.33	6460	6541
rdgA	5	20.3	22.3	6235	6761
CG4239	1	9.66	1.63	6477	6695
CG14505	1	26.7	14.6	5412	1565
sca	1	8.41	6.15	6922	6444
sca	2	20.6	4.26	4016	1196
mof	1	2.11	2.56	6169	6413
mof	2	4.36	3.25	7137	6379
